# Data from paper PMC9042943.
# Target: Recombinant Omicron (BA.1) variant SARS-CoV-2-S protein RBD monomer, spike residues 316-534 (SARS-CoV-2)
# Experiment: SPR
substance,measurement,value
"Recombinant hACE2 protein, residues 1-740 (from UniProt Q9BYF1-1 18-740) (receptor)",pKd,8.18

# pKd: −log10 of the molar value.
